Data published in publication PMC8571282 (Nature Communications, 2021).

Columns and labels:
[1] = system: SARS-CoV-2 (WA1/2020 and VOC α, β, γ); experiment: Antiviral potency in SARS-CoV-2-infected Vero E6 cells (range over isolates); assay type: cell-based; conditions: VeroE6
[2] = system: SARS-CoV-2 WA1/2020; experiment: Therapeutic efficacy in ferrets, WA1/2020; assay type: in vivo, ferret (Mustela putorius furo); conditions: ferret, given as 10 mg/kg b.i.d.

Q: With CC(C)C(=O)OCC1OC(C#N)(c2ccc3c(N)ncnn23)C(OC(=O)C(C)C)C1OC(=O)C(C)C (centres unmarked) as the molecule, how does the selectivity index (SI = CC50/EC50) [1] read?
A: > 137

Q: What about the “minimal daily oral dose providing full therapeutic benefit” value [2] of the same molecule?
A: 20 mg/kg
